For at least one entry, the source does not settle the construct or the ends of the probe. For part of these data: A negative result means that nothing was seen under these conditions. At least one verdict rests on a figure or table, not on a statement of the authors.
Experiments:
[1] = tested on: DdrR (Acinetobacter baumannii ATCC 17978); experiment: SPR
[2] = tested on: UmuDAb (Acinetobacter baumannii ATCC 17978); experiment: SPR

Sequence | binding result ([1]; 160 nM DdrR) | binding result ([2]; no DdrR, 2-16 nM UmuDAb, KD only shown in figure) | binding result ([2]; preincubated with 10x DdrR, affinity increased) | binding result ([1]; DdrR alone) | binding result ([2]; no DdrR) | binding result ([2]; premixed with DdrR, enhanced)
GTTACTACTCGAGCGTCGTCAACTTGAAAATGTAACTTTTTCAAGTTACATT / AATGTAACTTGAAAAAGTTACATTTTCAAGTTGACGA / CGCTCGAGTAGTAAC [umuDAb-ddrR operator (A1S_1389)] | no binding | binds | binds |  |  | 
GTTACTACTCGAGCGTCGTCAACTTGAATATGTTACAAAATCAAGTTACATT / AATGTAACTTGATTTTGTAACATATTCAAGTTGACGA / CGCTCGAGTAGTAAC [A1S_1174 operator (umuDC)] |  |  |  | no binding | binds | binds
GTTACTACTCGAGCGTCGTCAACTTGAATTTGTTACGATTTCAAGTTACATT / AATGTAACTTGAAATCGTAACAAATTCAAGTTGACGA / CGCTCGAGTAGTAAC [A1S_2015 operator (umuDC)] |  |  |  | no binding | binds | binds
GTTACTACTCGAGCGTCGTCAACTTGATTACGTTACGTTTTCAAGTTACATT / AATGTAACTTGAAAACGTAACGTAATCAAGTTGACGA / CGCTCGAGTAGTAAC [A1S_0636 operator (umuDC)] |  |  |  | no binding | binds | binds
GTTACTACTCGAGCGTCGTCAACTTGATTATGTTACAAATTCAAGTTACATT / AATGTAACTTGAATTTGTAACATAATCAAGTTGACGA / CGCTCGAGTAGTAAC [A1S_2008 operator (umuDC)] |  |  |  | no binding | binds | binds
